Assay results published in US20130131146A1, “Compositions and Methods for Treating Pulmonary Conditions” (THE JOHNS HOPKINS UNIVERSITY, priority 2010, published 2013).

Test system: Pa-LPS induced lung injury
Assay: Pa-LPS-induced lung injury, immunostaining of lung sections for ceramide, NFκB and NIMP-R14
[1] = Cftr+/+ mice, 50 μg/mouse i.t., 24 hrs

Substance: Fumonisin B1
- Pa-LPS induced NFκB levels (lung immunostaining) [1]: significant decrease
- Pa-LPS induced ceramide accumulation (lung immunostaining) [1]: significant decrease
- Pa-LPS induced neutrophil infiltration (NIMP-R14) [1]: significant decrease
- controlling Pa-LPS induced lung injury (representative sections) (Cftr-/- mice): relatively less effective
